Measured values: paper PMC10374108, “Structural and biochemical characterization of the key components of an auxin degradation operon from the rhizosphere bacterium Variovorax” (PLOS Biology, 2023)

Tested on: IadD/E-IadC dioxygenase system
Experiment: In vitro IAA and analogs transformation assay, IadC + IadD/E
Format: biochemical, Variovorax paradoxus CL14
Settings: result in words
Description: The reaction mixture was composed of 100 mM Tris-HCl (pH7.5), 250 μM reduced NADH, 10 μM ammonium iron (II) sulfate, and 3 μM of each enzyme component. […] The mixture was vortexed periodically to introduce oxygen for the reaction and was boiled to stop the reaction. After pelleting the precipitants, the supernatant was collected and mixed with 2 volumes of Salkowski reagent made of 0.5 M ferric chloride and 35% perchloric acid for the quantification of residual substrate by measuring the adsorption at 530 nm.

| Compound | transformation by IadD/E-IadC |
| --- | --- |
| O=C(O)Cc1c[nH]c2cccc(Cl)c12 [4-Cl-IAA, 4-chloroindole-3-acetic acid] | transformed with reduced efficiency |
| O=C(O)Cc1c[nH]c2ccc(O)cc12 [5-HIAA, 5-hydroxy indole-3-acetic acid] | could be further degraded |
| O=C(O)CCCc1c[nH]c2ccccc12 [IBA, indole-3-butyric acid] | could not catalyze the turnover |
| O=C(O)CCc1c[nH]c2ccccc12 [IPA, indole-3-propionic acid] | could not catalyze the turnover |
